Compound potency records, mixed from different reports. Data source: NIAID ChemDB in PubChem.

All rows: growth or infection tests; agent: Candida albicans; measure: zone

Conditions beyond the fields shown may differ between rows. Zone: diameter of growth inhibition. An empty or dashed field is not shown.

smiles,strain or isolate,read by,tested at,value
CC(=O)N1CCN(c2ccc(OC[C@H]3CO[C@](Cn4ccnc4)(c4ccc(Cl)cc4Cl)O3)cc2)CC1,C4,agar diffusion / agar,20 mg/mL,20 mm
CC1(C)CC(=O)c2cc(C3CC(c4ccc(Cl)cc4)=NO3)[nH]c2C1,ATCC 2091,,1000 µg/mL,23 mm
COc1ccc(C=NNC(=O)c2snnc2C(F)(F)F)cc1,MTCC 227,agar diffusion / agar,100 µg/mL,0 mm
OC(Cn1cncn1)(Cn1cncn1)c1ccc(F)cc1F,,agar diffusion / agar,26000 µg/mL,30.64 mm
O=C1CSC(c2ccc(O)cc2)N1Nc1nc2ccccc2n2nnnc12,ATCC 2091,agar diffusion,100 µg/mL,13 mm
COc1ccc(CN(CC(O)C[N+](C)(C)C)[C@@H]2[C@@H](O)[C@H](O[C@@H]3O[C@H](COCC(=O)O)[C@@H](O[C@@H]4C[C@H](COCC(=O)O)[C@@H](C)[C@H](O)[C@H]4N(Cc4ccc(OC)c(OC)c4)CC(O)C[N+](C)(C)C)[C@H](O)[C@H]3N(Cc3ccc(OC)c(OC)c3)CC(O)C[N+](C)(C)C)[C@@H](COCC(=O)O)O[C@H]2C)cc1OC,RCMB 05031,agar diffusion,1 mg/mL,12.7 mm
COC(=O)N[C@H](C(=O)NN(CC[C@@]1(Cc2ccccc2)C(=O)N(C2c3ccccc3C[C@H]2O)C[C@@H]1O)Cc1ccc(Br)cc1)C(C)(C)C,,agar diffusion / agar,10 mg/mL,12.8 mm
O=C(CN1C(=O)S/C(=C\c2c(Cl)cccc2Cl)C1=O)c1ccccc1,ATCC 90028,agar diffusion / agar,5000 µg/mL,14 mm
CC1(C)CC2C3=CCC4[C@@]5(C)CCC(=O)C(C)(C)C5CC[C@@]4(C)[C@]3(C)C[C@@H](O)[C@@]2(CO)[C@@H](O)C1,UPCC 2168,agar diffusion,30 mg/disc,12 mm
CC(C)N1CCN(c2nc(Nc3ccc(C#N)c(C(F)(F)F)c3)nc(Oc3cccc4cccnc34)n2)CC1,MTCC 183,agar diffusion / agar,100 µg/disc,21 mm
O=c1[nH]cnc2nc(-c3ccccn3)c(-c3ccccn3)nc12,,,500 mg/mL,30 mm
COc1ccc(/C=C2\SC(=O)N(CC(=O)c3ccc(Cl)cc3)C2=O)cc1,ATCC 90028,agar diffusion / agar,5000 µg/mL,16 mm
Nc1ccccc1Nc1ccc([N+](=O)[O-])c2nc[nH]c(=O)c12,ATCC 10231,agar diffusion,1000 µg/mL,0 mm
O=C(NN=C1CCCCCC1)c1snnc1C(F)(F)F,MTCC 227,agar diffusion / agar,150 µg/mL,0 mm
COC(=O)N[C@H](C(=O)NN(CC[C@@]1(Cc2ccccc2)C(=O)N(C2c3ccccc3C[C@H]2O)C[C@H]1O)Cc1ccc(-c2ccccn2)cc1)C(C)(C)C,,agar diffusion / agar,10 mg/mL,12.8 mm
COc1ccc(/C=C2\SC(=O)N(CC(=O)c3ccc([N+](=O)[O-])cc3)C2=O)cc1,ATCC 90028,agar diffusion / agar,5000 µg/mL,16 mm
Nc1ccc(Nc2ccc(Cl)cc2)c2c(=O)[nH]cnc12,ATCC 10231,agar diffusion,1000 µg/mL,0 mm
O=C(NN=Cc1ccc(Cl)cc1)c1snnc1C(F)(F)F,MTCC 227,agar diffusion / agar,100 µg/mL,0 mm
CC1(C)CC(=O)c2cc(C3=CC(c4ccc(Br)cc4)=CC3c3nnc4c(n3)Nc3ccccc3C4)[nH]c2C1,ATCC 2091,,1000 µg/mL,21 mm
O=C(NN=Cc1ccc(Br)cc1)c1snnc1C(F)(F)F,MTCC 227,agar diffusion / agar,100 µg/mL,0 mm
Cc1ccc(O)c(O)c1O,,,100 µg/mL,16 mm
COC(=O)[C@H](C)NC(=O)[C@H](Cc1ccc(O)cc1)NC(=O)[C@@H]1CCCN1C(=O)[C@H](CC(C)C)NC(=O)CNC(=O)[C@@H]1CCCN1C(=O)[C@H](CC(=O)O)NC(C)(C)C,,,6 µg/mL,12 mm
O=C1CSC(c2ccccc2Cl)N1Nc1nc2ccccc2n2nnnc12,ATCC 2091,agar diffusion,50 µg/mL,10 mm
CC1(C)C=C2C3CCC4[C@@]5(C)CC[C@H](OC(=O)/C=C/c6ccc(O)c(O)c6)C(C)(C)C5CC[C@@]4(C)[C@]3(C)CC[C@@]2(C)CC1,UPCC 2168,agar diffusion,30 mg/disc,13 mm
Clc1ccc(COC(Cn2ccnc2)c2ccc(Cl)cc2Cl)c(Cl)c1,,agar diffusion,30 µg/mL,24 mm
CC(=O)N1N=C(c2sc3ccccc3c2Cl)OC1c1ccccc1,,,5 µg/disc,14 mm
Nc1ccc(Nc2cccc(Cl)c2)c2c(=O)[nH]cnc12,ATCC 10231,agar diffusion,1000 µg/mL,0 mm
NC(=O)c1cc(C(=O)CN2C(=O)S/C(=C\c3c(Cl)cccc3Cl)C2=O)ccc1O,ATCC 90028,agar diffusion / agar,5000 µg/mL,22 mm
Clc1nccc2nc(-c3ccccn3)c(-c3ccccn3)nc12,,,250 mg/mL,35 mm
CC(=O)c1ccc(-c2nnc(-c3sc4ccccc4c3Cl)o2)cc1,,,5 µg/disc,11 mm
COc1ccc(/C=C2\SC(=O)N(C(C)C(=O)c3ccccc3)C2=O)cc1,ATCC 90028,agar diffusion / agar,5000 µg/mL,16 mm
N#Cc1ccc(Nc2nc(Oc3cccc4cccnc34)nc(N3CCCCC3)n2)cc1C(F)(F)F,MTCC 183,agar diffusion / agar,100 µg/disc,23 mm
C(=N\Nc1nnc2c(n1)Nc1ccccc1N2)/c1ccccc1,ATCC 2091,,1000 µg/mL,22 mm
CCCCCCCCN(CC(O)C[N+](C)(C)C)[C@@H]1[C@@H](O)[C@H](O[C@@H]2O[C@H](COCC(=O)O)[C@@H](O[C@@H]3C[C@H](COCC(=O)O)[C@@H](C)[C@H](O)[C@H]3N(CCCCCCCC)CC(O)C[N+](C)(C)C)[C@H](O)[C@H]2N(CCCCCCCC)CC(O)C[N+](C)(C)C)[C@@H](COCC(=O)O)O[C@H]1C,RCMB 05031,agar diffusion,1 mg/mL,13.9 mm
Nc1[nH]c(=O)nc2nc(-c3ccccn3)c(-c3ccccn3)nc12,,,500 mg/mL,30 mm
CC(=O)N1N=C(c2sc3ccccc3c2Cl)OC1c1cccc([N+](=O)[O-])c1,,,5 µg/disc,10 mm
O=c1ncc2nc(-c3ccccn3)c(-c3ccccn3)nc2[nH]1,,,250 mg/mL,23 mm
COC(=O)N[C@H](C(=O)NN(CC[C@]1(Cc2ccccc2)C(=O)N(C2c3ccccc3C[C@H]2O)C[C@H]1O)Cc1ccc(Br)cc1)C(C)(C)C,,agar diffusion / agar,10 mg/mL,12.8 mm
CC(=O)N1N=C(c2sc3ccccc3c2Cl)OC1c1ccc(Cl)cc1,,,5 µg/disc,11 mm
Cn1cc(CCC(=O)NCc2cn(C)c3ccc(Cl)cc23)c2cc(Cl)ccc21,,,25 µg/mL,<10 mm
Cc1ccccc1Nc1ccc(Nc2c(Cl)c(Cl)c(C#N)c(Cl)c2C#N)c2nc[nH]c(=O)c12,ATCC 10231,agar diffusion,1000 µg/mL,0 mm
COC(=O)N[C@H](C(=O)NN(CC[C@@]1(Cc2ccccc2)C(=O)N(C2c3ccccc3C[C@H]2O)C[C@H]1O)Cc1ccc(-c2cccnc2)cc1)C(C)(C)C,,agar diffusion / agar,10 mg/mL,12.8 mm
CC(=O)N1N=C(c2sc3ccccc3c2Cl)OC1c1ccccc1Cl,,,5 µg/disc,10 mm
O=C1CSC(c2ccc(C(F)(F)F)cc2)N1Nc1nc2ccccc2n2nnnc12,ATCC 2091,agar diffusion,100 µg/mL,10 mm
Cn1cc(CCCNC(=O)CCc2c[nH]c3ccc(Cl)cc23)c2cc(Cl)ccc21,,,25 µg/mL,<10 mm
C[C@@H]1[C@@H](COCC(=O)O)C[C@@H](O[C@H]2[C@H](O)[C@@H](N(Cc3cccs3)CC(O)C[N+](C)(C)C)[C@H](O[C@H]3[C@H](O)[C@@H](N(Cc4cccs4)CC(O)C[N+](C)(C)C)[C@H](C)O[C@@H]3COCC(=O)O)O[C@@H]2COCC(=O)O)[C@H](N(Cc2cccs2)CC(O)C[N+](C)(C)C)[C@H]1O,RCMB 05031,agar diffusion,1 mg/mL,17.3 mm
Cn1c(=S)[nH]c2nc(-c3ccccn3)c(-c3ccccn3)nc2c1=O,,,250 mg/mL,0 mm
COC(=O)N[C@H](C(=O)NN(CC[C@@]1(Cc2ccccc2)C(=O)N(C2c3ccccc3C[C@H]2O)C[C@@H]1O)Cc1ccc(-c2cccnc2)cc1)C(C)(C)C,,agar diffusion / agar,10 mg/mL,12.8 mm
N#Cc1ccc(Nc2nc(Oc3cccc4cccnc34)nc(N3CCN(c4ncccn4)CC3)n2)cc1C(F)(F)F,MTCC 183,agar diffusion / agar,100 µg/disc,26 mm
COc1ccc(C2=NN(C(N)=S)C(c3cc4c([nH]3)CC(C)(C)CC4=O)C2)cc1,ATCC 2091,,1000 µg/mL,21 mm
Cc1c(CCCNC(=O)CCc2cn(C)c3ccc(Cl)cc23)c2cc(OC(F)(F)F)ccc2n1C,,,25 µg/mL,<10 mm
COC(=O)N[C@H](C(=O)NN(CC[C@@]1(Cc2ccccc2)C(=O)N(C2c3ccccc3C[C@H]2O)C[C@@H]1O)Cc1ccc(-c2ccncc2)cc1)C(C)(C)C,,agar diffusion / agar,10 mg/mL,12.8 mm
O=C(NN=Cc1ccc(F)cc1)c1snnc1C(F)(F)F,MTCC 227,agar diffusion / agar,100 µg/mL,0 mm
COC(=O)N[C@H](C(=O)NN(CC[C@@]1(Cc2ccccc2)C(=O)N(C2c3ccccc3C[C@H]2O)C[C@H]1O)Cc1ccc(-c2ccncc2)cc1)C(C)(C)C,,agar diffusion / agar,10 mg/mL,12.8 mm
CN(C)c1ccc(N)c2nc[nH]c(=O)c12,ATCC 10231,agar diffusion,1000 µg/mL,0 mm
CCOC(=O)Cc1nnc2nnc3c(n12)Nc1ccccc1C3,ATCC 2091,,1000 µg/mL,23 mm
O=C1C(Cl)C(c2ccc(C(F)(F)F)cc2)N1Nc1nc2ccccc2n2nnnc12,ATCC 2091,agar diffusion,100 µg/mL,9 mm
O=c1[nH]c(=O)c2nc(-c3ccccn3)c(-c3ccccn3)nc2[nH]1,,,500 mg/mL,25 mm
CC(C(=O)c1ccccc1)N1C(=O)S/C(=C\c2c(Cl)cccc2Cl)C1=O,ATCC 90028,agar diffusion / agar,5000 µg/mL,24 mm
N#Cc1ccc(Nc2nc(Oc3cccc4cccnc34)nc(N3CCN(c4cccc(Cl)c4)CC3)n2)cc1C(F)(F)F,MTCC 183,agar diffusion / agar,100 µg/disc,25 mm
CC1(C)CC(=O)c2cc(C3=CC(c4ccc(Br)cc4)=CC3c3nnc4c(n3)Nc3ccccc3N4)[nH]c2C1,ATCC 2091,,1000 µg/mL,23 mm

For reference, 3 entries again:

smiles,strain or isolate,read by,tested at,value
O=C(CN1C(=O)S/C(=C\c2c(Cl)cccc2Cl)C1=O)c1ccccc1,ATCC 90028,agar diffusion / agar,5000 µg/mL,14 mm
Nc1ccc(Nc2ccc(Cl)cc2)c2c(=O)[nH]cnc12,ATCC 10231,agar diffusion,1000 µg/mL,0 mm
COC(=O)N[C@H](C(=O)NN(CC[C@@]1(Cc2ccccc2)C(=O)N(C2c3ccccc3C[C@H]2O)C[C@@H]1O)Cc1ccc(-c2cccnc2)cc1)C(C)(C)C,,agar diffusion / agar,10 mg/mL,12.8 mm